Measurements taken from the supplement of paper PMC3578754.
Fold change is the IC50 on the isolate divided by the IC50 on a reference virus; 1 = unchanged, higher = more resistant. Changes are given against the subtype B consensus. No active / inactive call. The values were gathered from many studies (numbered anew) with different assays, which the source does not name. Most viruses are clinical isolates; some are laboratory strains or clones with known resistance changes. Isolates with mixed residues are left out; stretches that were not sequenced show no change. Round top values that many isolates share are read here as limits; other very high values and 0.1 may be limits too. The protease changes I3V and N37S, insertions and deletions cannot be read from the source.

How the values were obtained:
Assay in all cases: fold change of IC50 against reference virus; higher = more resistant; Cell-culture drug susceptibility tests of virus bearing the protease of each isolate, gathered from many studies.
indinavir = compound: CC(C)(C)NC(=O)[C@@H]1CN(Cc2cccnc2)CCN1C[C@@H](O)C[C@@H](Cc1ccccc1)C(=O)N[C@H]1c2ccccc2C[C@H]1O [indinavir]
saquinavir = compound: CC(C)(C)NC(=O)[C@@H]1C[C@@H]2CCCC[C@@H]2CN1C[C@@H](O)[C@H](Cc1ccccc1)NC(=O)[C@H](CC(N)=O)NC(=O)c1ccc2ccccc2n1 [saquinavir]
ritonavir = compound: CC(C)c1nc(CN(C)C(=O)N[C@H](C(=O)N[C@@H](Cc2ccccc2)C[C@H](O)[C@H](Cc2ccccc2)NC(=O)OCc2cncs2)C(C)C)cs1 [ritonavir]
atazanavir = compound: COC(=O)N[C@H](C(=O)N[C@@H](Cc1ccccc1)[C@@H](O)CN(Cc1ccc(-c2ccccn2)cc1)NC(=O)[C@@H](NC(=O)OC)C(C)(C)C)C(C)(C)C [atazanavir]
nelfinavir = compound: Cc1c(O)cccc1C(=O)N[C@@H](CSc1ccccc1)[C@H](O)CN1C[C@H]2CCCC[C@H]2C[C@H]1C(=O)NC(C)(C)C [nelfinavir]

Row | Test System | fold change of IC50 against reference virus (indinavir) | fold change of IC50 against reference virus (saquinavir) | fold change of IC50 against reference virus (ritonavir) | fold change of IC50 against reference virus (atazanavir) | fold change of IC50 against reference virus (nelfinavir)
1 | HIV-1 isolate 1222 (protease changes: E35D M36I R41K R57K I62V L63P V77I I93L, study 115) | 0.8 | 0.7 | 1 | 0.7 | 1.5
2 | HIV-1 isolate 743 (protease changes: I50L, study 115) | 0.1 |  | 0.3 | 3 | 0.1
3 | HIV-1 isolate 1076 (protease changes: L10I I15V L19P K20I E35D M36I R41K I62V L63P A71V G73S I84V L90M, study 83) | 24 | 132 | 29 | 21 | 42
4 | HIV-1 isolate 653 (protease changes: T12S I15V L19I K20R E35D M36I R41K I50L H69K L89M I93L, study 115) | 0.4 | 0.3 | 0.3 | 9.5 | 0.4
5 | HIV-1 isolate 173 (protease changes: I50L A71V, study 115) | 0.3 |  | 0.2 | 10 | 0.3
6 | HIV-1 isolate 383 (protease changes: L10R D30N E35D M36I N37D K45R I54L L63P H69Q A71V N88D L90M I93L, study 115) | 5.2 | 21 | 10 | 14 | 140
7 | HIV-1 isolate 867 (protease changes: L10F I13V D30N R41K I50L I62V L63P K70R A71T N88D I93L, study 115) | 0.1 |  | 0.1 | 22 | 6
8 | HIV-1 isolate 1456 (protease changes: I13V I15V D30N E35D M36I K45Q R57K L63P, study 115) | 1 | 1 | 0.8 | 2.4 | 34
9 | HIV-1 isolate 1557 (protease changes: none, study 43) | 1 | 1 | 1 | 1 | 1
10 | HIV-1 isolate 640 (protease changes: L10I I54V L63P A71V V77I V82A I93L, study 24) | 13 | 4 | 33 | 6 | 15
11 | HIV-1 isolate 1156 (protease changes: L10I I13V K20I L33I E35D M36I I54V Q58E L63P I66V A71V V82T L90M, study 24) | 78 | 40 | 90 | 82 | 101
12 | HIV-1 isolate 1307 (protease changes: R57K I62V L63P I64L H69Q V77I I93L, study 115) | 1 | 0.7 | 1.2 | 1.1 | 1.2
13 | HIV-1 isolate 686 (protease changes: none, study 43) | 1 | 1 | 1 | 1 | 1
14 | HIV-1 isolate 348 (protease changes: V32I M46I I47V V82I, study 43) | 11 | 1 | 16 | 2 | 11
15 | HIV-1 isolate 575 (protease changes: L10I G48V R57G L90M, study 43) | 3 | 8 | 2 | 1 | 2
16 | HIV-1 isolate 1033 (protease changes: L10I M46I I54V L63P A71V G73T V82T L90M, study 24) | 41 | 14 | 77 | 29 | 37
17 | HIV-1 isolate 813 (protease changes: none, study 115) | 1 |  | 1 | 1 | 1
18 | HIV-1 isolate 57 (protease changes: Q2V M36I L63P, study 115) | 0.9 | 0.9 | 1.1 | 0.9 | 1.1
19 | HIV-1 isolate 1020 (protease changes: A71V, study 115) | 1 |  | 0.7 | 2 | 1.3
20 | HIV-1 isolate 1084 (protease changes: I50L A71V, study 115) | 0.3 |  | 0.2 | 6 | 0.3
21 | HIV-1 isolate 1634 (protease changes: A71V, study 115) | 0.6 |  | 0.5 | 2.4 | 1.1
22 | HIV-1 isolate 1158 (protease changes: I50L, study 115) | 0.1 |  | 0.1 | 5.4 | 0.2
23 | HIV-1 isolate 1599 (protease changes: L10F I13V L23I D30N R41K I62V L63P K70R A71T N88D I93L, study 115) | 2.3 |  | 0.8 | 7.6 | 142
24 | HIV-1 isolate 1197 (protease changes: L10I I13V K14R L19I K20R V32I E35D M36I N37Q K43P M46I F53L I54M R57K L63P A71V G73S V77I I85V L89V L90M, study 101) |  | 59 | 158 | 108 | 76
25 | HIV-1 isolate 568 (protease changes: I50L, study 115) | 0.1 |  | 0.1 | 2 | 0.1
26 | HIV-1 isolate 469 (protease changes: I50L A71V, study 115) | 0.1 |  | 0.2 | 6 | 0.2
